Measured values from several laboratories, pooled; numbers as filed in NIAID ChemDB.

Common to all: host cell toxicity; cell line: PBMC; read-out: CC50

Conditions beyond the fields shown may differ between rows. CCn is the concentration with n% toxicity to the cells. An empty or dashed field is not shown.

smiles | read by | result
c1cnc2c(c1)CN(c1nn3c(C4CC4)nnc3c3ccccc13)CC2 | - | 11.9 µM
O=C(NCCCc1ccccc1)NCCc1ccc2c(n1)NCCC2 | - | 50 µM
c1ccc2c(c1)CCN(c1nn3c(-c4cscn4)nnc3c3ccccc13)C2 | - | 2.07 µM
O=C(NCCc1ccc2c(n1)NCCC2)Nc1ccccc1-c1ccccc1 | - | 9 µM
CN(C)CCSc1cccc(-c2ccnc(SCCN(C)C)n2)c1 | - | 100 µM
Nc1ccc2c(c1)CN(c1nn3c(C4CC4)nnc3c3ccccc13)CC2 | - | 22.1 µM
O=C(NCCc1ccc2c(n1)NCCC2)NCc1ccc(Cl)cc1 | - | 50 µM
Cc1ccc2nc(Cl)c(/C=C/C(=O)c3ccc(C)s3)cc2c1 | MTS | 55.4 µM
Cc1ccc(CNC(=O)NCCc2ccc3c(n2)NCCC3)cc1 | - | 50 µM
CN(C)CCNc1nc(-c2cc3ccccc3s2)c2ccccc2n1 | - | 100 µM
Cc1ccc2nc(Cl)c(/C=C/C(=O)c3cc4ccccc4o3)cc2c1 | MTS | 4.8 µM
CC(C)(C)c1ccccc1NC(=O)NCCc1ccc2c(n1)NCCC2 | - | 0.45 µM
COc1ccc2c(c1)CCN(c1nn3c(C4CC4)nnc3c3ccccc13)C2 | - | 3 µM
CN1CCN(CCSc2nc(-c3ccc4ccccc4c3)c3ccccc3n2)CC1 | - | 100 µM
O=C(NCCc1ccc2c(n1)NCCC2)Nc1cccc(C(F)(F)F)c1F | - | 4 µM
Cc1ccc2nc(Cl)c(/C=C/C(=O)c3ccc(I)s3)cc2c1 | MTS | 32 µM
O=C(CCc1ccc(Cl)c(Cl)c1)NCCc1ccc2c(n1)NCCC2 | - | 50 µM
Cc1ccc2nc(Cl)c(/C=C/C(=O)c3cccc4ccccc34)cc2c1 | MTS | >100 µM
c1ccc2c(c1)CCN(c1nn3c(C4CC4)nnc3c3ccccc13)C2 | - | 64.7 µM
Nc1nccc2c1ncn2[C@@H]1O[C@H](CO)[C@@H](O)[C@H]1O | - | 9.97 µM
NCCNc1nc(-c2ccoc2)cc(-c2cc3ccccc3s2)n1 | - | 10 µM
O=C(NCCc1ccc2c(n1)NCCC2)Nc1c(F)cc(Br)cc1F | - | 20 µM
Nc1ncnc2c1ncn2[C@@H]1C=C(CO)[C@@H](O)[C@H]1O | - | 10 µM
CN(C)CCNc1cc(NCCN(C)C)nc(-c2cc3ccccc3s2)n1 | - | 10 µM
CC(C)c1nnc2c3ccccc3c(N3CCc4ccc(N)cc4C3)nn12 | - | 22.4 µM
Cc1cc(NC(=O)NCCc2ccc3c(n2)NCCC3)c(C(F)(F)F)o1 | - | 50 µM
CN(C)Cc1ccc(-c2cccc(-c3ccc(CN(C)C)cc3)n2)cc1 | - | 100 µM